A mixed list of measured activities; the numbers were collected in NIAID ChemDB.

All rows: tests in culture; organism: Mycobacterium kansasii

Lines come from different laboratories, so protocols vary. An empty or dashed field is not shown. MIC50, MIC90 and the like: level of inhibition, or share of isolates inhibited.

structure	conditions	strain or isolate	endpoint	read by	value
O=C(Oc1ccc(Cl)cc1C(=O)Nc1cccc(F)c1)c1cnccn1	14 d	6509/96	MIC	-	8 µM
Cc1ccc2oc(=O)n(-c3ccc(F)cc3)c(=S)c2c1	21 d	My 235/80	MIC	-	16 µM
CCCCc1ccc(NC(=O)NNC(=O)c2ccncc2)cc1	21 d	My 235/80	MIC100	broth dilution	125 µM
O=C(Oc1ccc(Cl)cc1C(=O)Nc1ccc(F)cc1)c1cnccn1	14 d	6509/96	MIC	-	8 µM
CCCCCCc1ccc(NC(=O)NNC(=O)c2ccncc2)cc1	21 d	My 6509/96	MIC100	broth dilution	125 µM
Fc1ccc(-n2c(=S)oc3ccc(Br)cc3c2=S)cc1	14 d	My 235/80	MIC	-	8 µM
Nc1ccc(C(=O)O)c(O)c1	7 d	6509/96	MIC	-	32 µM
O=C(NNC(=O)c1ccncc1)Nc1ccc(Cl)c(C(F)(F)F)c1	21 d	My 235/80	MIC100	broth dilution	125 µM
O=c1oc2ccc(Br)cc2c(=S)n1-c1ccc(Cl)cc1	21 d	My 235/80	MIC	-	8 µM
O=C(Oc1cc(Cl)ccc1C(=O)Nc1cccc(Cl)c1)c1cnccn1	14 d	235/80	MIC	-	4 µM
O=C(Nc1ccc(C(F)(F)F)cc1)c1cc(Cl)ccc1OS(=O)(=O)c1ccccc1	21 d	6509/96	MIC	-	125 µM
O=C(NNC(=O)c1ccncc1)Nc1ccc(Br)cc1Br	21 d	My 6509/96	MIC100	broth dilution	>125 µM
Cc1ccc(-n2c(=O)oc3ccc(F)cc3c2=S)cc1	14 d	My 235/80	MIC	-	1 µM
CC(C)[C@H](NC(=O)OCc1ccccc1)C(=O)Oc1ccc(Cl)cc1C(=O)Nc1ccc([N+](=O)[O-])cc1	-	DSM 44162	MIC100	broth dilution	7.6 µM
Cc1ccc2oc(=S)n(-c3ccc(Br)cc3)c(=S)c2c1	14 d	My 235/80	MIC	-	4 µM
O=C(Oc1cc(Cl)ccc1C(=O)Nc1ccc(Br)cc1)c1cnccn1	21 d	6509/96	MIC	-	4 µM
Cc1ccc2oc(=O)n(-c3ccc(Cl)cc3)c(=S)c2c1	21 d	My 235/80	MIC	-	4 µM
O=C(N[C@H](C(=O)Oc1ccc(Cl)cc1C(=O)Nc1ccc(Br)cc1)C1CCCCC1)OCc1ccccc1	-	DSM 44162	MIC100	broth dilution	13.03 µM
O=C(NNC(=O)c1ccncc1)Nc1ccc(Br)c(C(F)(F)F)c1	7 d	My 235/80	MIC100	broth dilution	>125 µM
COc1ccc2oc(=S)n(-c3ccc(Cl)c(Cl)c3)c(=S)c2c1	21 d	6509/96	MIC	-	32 µM
O=C(Nc1ccc(Cl)cc1)c1cc(Cl)ccc1OS(=O)(=O)c1ccccc1	7 d	235/80	MIC	-	8 µM
CCCCCCCc1ccc(NC(=O)NNC(=O)c2ccncc2)cc1	21 d	My 235/80	MIC100	broth dilution	125 µM
O=C(Nc1cccc(Cl)c1)c1cc(Cl)ccc1OS(=O)(=O)c1ccccc1	7 d	235/80	MIC	-	8 µM
NNC(=O)c1ccncc1	7 d	235/80	MIC	-	>250 µM
O=C(Nc1ccc(Cl)c(Cl)c1)c1ccc(Cl)cc1OS(=O)(=O)c1ccccc1	14 d	6509/96	MIC	-	8 µM
O=C(NNC(=O)c1ccncc1)Nc1ccc(Br)cc1F	21 d	My 235/80	MIC100	broth dilution	>125 µM
O=C(Nc1ccc(F)cc1)c1ccc(Cl)cc1OS(=O)(=O)c1ccccc1	14 d	235/80	MIC	-	32 µM
COc1ncccc1Nc1cc2nc3ccccc3n(-c3ccc(OC(F)(F)F)cc3)c-2cc1=NC1CCC(OC)CC1	-	-	MIC90	fluorescence	0.183 µg/mL

Repeating the final 3 entries:

| structure | conditions | strain or isolate | endpoint | read by | value |
|---|---|---|---|---|---|
| O=C(NNC(=O)c1ccncc1)Nc1ccc(Br)cc1F | 21 d | My 235/80 | MIC100 | broth dilution | >125 µM |
| O=C(Nc1ccc(F)cc1)c1ccc(Cl)cc1OS(=O)(=O)c1ccccc1 | 14 d | 235/80 | MIC | - | 32 µM |
| COc1ncccc1Nc1cc2nc3ccccc3n(-c3ccc(OC(F)(F)F)cc3)c-2cc1=NC1CCC(OC)CC1 | - | - | MIC90 | fluorescence | 0.183 µg/mL |